Anti-infective test results gathered from many reports (values: NIAID ChemDB through PubChem).

Shared fields: whole-cell or culture tests; agent: Herpes simplex virus 2; measure: EC50

ECn is the concentration giving n% inhibition of infection, replication or growth. An empty or dashed field is not shown. Two numbers with a dash give a range or band. Lines come from different laboratories, so protocols vary.

smiles	strain or isolate	read by	result
O=c1c2ncn(COCCO)c2[nH]c2ncc(CO)n12	LYONS	cytopathic effect	>3.2 µg/mL
O=C(c1ccc([N+](=O)[O-])cc1)n1c(-c2ccccc2[N+](=O)[O-])nc2ccccc21	G		>100 µg/mL
Cc1cn(C[C@H]2C[C@H]2CO)c(=O)[nH]c1=O		cytopathic effect	>100 µg/mL
CNc1ncnc2c1ncn2[C@@H]1S[C@@H](CO)C[C@@H]1N=[N+]=[N-]			>100 µg/mL
Nc1nc2c(ncn2C[C@H]2C[C@@H]2CO)c(=O)[nH]1		cytopathic effect	>100 µg/mL
CCc1cn([C@@H]2OC3COP(=O)(O)OC3[C@H]2O)c(=O)nc1N	196		>400 µg/mL
Nc1ncc2ncn(/C=C3\CC3CO)c2n1		ELISA	>100 µM
O=c1c2ncn(COCCO)c2[nH]c2ncc(C(c3ccccc3)(c3ccccc3)c3ccccc3)n12	196	cytopathic effect	>16 µg/mL
[N-]=[N+]=N[C@H]1C[C@@H](CO)S[C@H]1n1cnc2c(N)ncnc21			>100 µg/mL
Cc1cn([C@@H]2S[C@H](CO)[C@@H](O)[C@@H]2F)c(=O)[nH]c1=O	MS	cytopathic effect	3.2 µg/mL
CC(=O)NC1C(O)OC(CO)C(O)C1OC1OC(C(=O)[O-])C(OC2OC(CO)C(O)C(OC3OC(C(=O)[O-])C(O)C(O)C3O)C2NC(C)=O)C(O)C1O.[Na+].[Na+]	196		>400 µg/mL
Nc1ncn([C@H]2CC[C@H](CO)O2)c(=O)n1			>100 µM
Nc1ncnc2c1ncn2[C@@H]1OCC(CO)=C1F			>100 µg/mL
CCCCc1cn([C@@H]2O[C@H](COP(=O)(O)O)[C@@H](O)[C@H]2O)c(=O)nc1N	196		>400 µg/mL
O=C(c1ccncc1)n1c(-c2cccc(Cl)c2)nc2ccccc21	G		>100 µg/mL
[N-]=[N+]=N[C@H]1C[C@H](CO)S[C@H]1n1ccc(=O)[nH]c1=O			>100 µg/mL
Nc1ncnc2c1ncn2[C@H]1S[C@H](CO)[C@@H](O)[C@@H]1F	MS	cytopathic effect	>27 µg/mL
O=C(c1ccncc1)n1c(-c2ccc(O)cc2)nc2ccccc21	G		>4 µg/mL
O=c1c2ncn(COC(CO)CO)c2nc2[nH]c(-c3ccccc3)cn12	G	cytopathic effect	0.3 µg/mL
CC(C)c1cn([C@@H]2O[C@H](COP(=O)(O)O)[C@@H](O)[C@H]2O)c(=O)nc1N	196		>400 µg/mL
O=C(c1ccncc1)n1c(-c2ccccc2Cl)nc2ccccc21	G		>20 µg/mL
Cn1cc(C(=O)NCc2ccc(Cl)cc2)c(=O)c2cc(CN3CCOCC3)ccc21	3 isolates	plaque count	3.4 µM
COc1ccc(-c2cn3c(=O)c4ncn(COC(CO)CO)c4nc3[nH]2)cc1	LYONS	cytopathic effect	0.02 µg/mL
Nc1nc2c(ncn2[C@@H]2C[C@H](CO)[C@H]2CO)c(=O)[nH]1			0.01–0.1 µM
Nc1ncc2c(ncn2/C=C2\CC2CO)n1		ELISA	>100 µM
Nc1ncnc2c1ncn2C[C@H]1C[C@H]1CO		cytopathic effect	>100 µg/mL
O=C(NCc1ccc(Cl)cc1)c1c[nH]c2ccc(C#CCO)cc2c1=O	MS	plaque count	14 µM
Nc1nc2c(ncn2[C@H]2C=C[C@@H](CO)CC2)c(=O)[nH]1			0.1–1 µM
Nc1nc(Cl)nc2c1ncn2[C@H]1S[C@H](CO)[C@@H](O)[C@@H]1F	MS	cytopathic effect	>27 µg/mL
CC(C)c1cn([C@@H]2OC3COP(=O)(O)OC3[C@H]2O)c(=O)nc1N	LYONS		>400 µg/mL
NC1=NC2C(C=CN2CC(CO)CCO)C(=O)N1			0.01–0.1 µM
[N-]=[N+]=N[C@H]1C[C@H](CO)SC1n1cnc2c(N)ncnc21			>100 µg/mL
O=c1c2ncn(COCCO)c2nc2[nH]c(-c3ccccc3)c(-c3ccc(C(c4ccccc4)c4ccccc4)cc3)n12	LYONS	cytopathic effect	>16 µg/mL
O=C(c1ccncc1)n1c(-c2ccccc2[N+](=O)[O-])nc2ccccc21	G		>20 µg/mL
CCCCCCc1cn([C@@H]2OC3COP(=O)(O)OC3[C@H]2O)c(=O)nc1N	LYONS		>400 µg/mL
[N-]=[N+]=N[C@@H]1C[C@@H](CO)S[C@@H]1n1ccc(=O)[nH]c1=O			>100 µg/mL
Nc1nc(Cl)nc2c1ncn2[C@@H]1S[C@H](CO)[C@@H](O)[C@@H]1F	MS	cytopathic effect	9 µg/mL
Nc1nc2c(ncn2COCCO)c(=O)[nH]1			1.33 µM
Nc1ncn([C@@H]2CC[C@H](CO)O2)c(=O)n1			>100 µM

The last 2 rows once more:

| smiles | strain or isolate | read by | result |
|---|---|---|---|
| Nc1nc2c(ncn2COCCO)c(=O)[nH]1 |  |  | 1.33 µM |
| Nc1ncn([C@@H]2CC[C@H](CO)O2)c(=O)n1 |  |  | >100 µM |